# Values of other authors as cited in US4868155A, “Dipeptidyl 4-0-,6-0-acyl-2-amino-2-deoxy-D-glucose compositions and methods of use in AIDS-immunocompromised human hosts” (Merck & Co., Inc., priority 1987, dated 1989).
# Tested on: AIDS related virus
# Conditions: clinical trials
substance,measurement,value
Interleukin-2: Protein made by white blood cells that mediates production of interferon,"clinical benefit (symptoms, immune function) in AIDS / ARC patients",not encouraging
